From article PMC12582335 come the findings set out here.

This assay addresses SARS-CoV-2 Wuhan spike protein expressed on the surface of HEK293T cells (SARS-CoV-2 (Wuhan)). Nature of the assay: flow cytometry on cells. The following applies: remark: other sources report otherwise. On the technique in general: A flow cytometer gives signals particle by particle.

B1: recombinant collectin-11 (rCL-11), CHO-expressed, Q9BWP8 26-271 (natural protein)
chain: QPAGDDACSVQILVPGLKGDAGEKGDKGAPGRPGRVGPTGEKGDMGDKGQKGSVGRHGKIGPIGSKGEKGDSGDIGPPGPNGEPGLPCECSQLRKAIGEMDNQVSQLTSELKFIKNAVAGVRETESKIYLLVKEEKRYADAQLSCQGRGGTLSMPKDEAANGLMAAYLAQAGLARVFIGINDLEKEGAFVYSDHSPMRTFNKWRSGEPNNAYDEEDCVEMVASGGWNDVACHTTMYFMCEFDKENM
B1: the percent inhibition by L-fucose was more than 90%.
